Pooled drug test results. Numbers come from NIAID ChemDB, via PubChem.

All rows: target-level tests

ICn is the concentration giving n% inhibition.

structure | method | read-out | dose | strain or isolate | protein | organism | value
CC(=O)N[C@@H](CC(=O)O)C(=O)N[C@H](CCC(=O)O)C(=O)N[C@H](C(=O)N[C@H](C(=O)N1C[C@H](OCc2cccc3ccccc23)C[C@H]1C(=O)NC1(C(=O)O)CC1)C(C)C)C1CCCCC1 |  | IC50 |  |  | Nonstructural protein 3 protease | Hepatitis C virus | 0.013 µM
C=C[C@@H]1C[C@]1(NC(=O)[C@@H]1C[C@@H](Oc2cc(-c3ccccc3)nc3cc(OC)ccc23)CN1C(=O)[C@@H](NC(=O)OC(C)(C)C)C(C)(C)C)C(=O)O |  | Ki |  |  | NS3 serine protease | Hepatitis C virus | <0.5 µM
O=C(Nc1ccc2[nH]ncc2c1)c1cc(C2CCNCCN2)c(F)cc1F |  | inhibition | 0.1 µg/mL |  | Reverse transcriptase | Hepatitis B virus | 36%
C[C@@]1(O)[C@H](O)[C@@H](COP(=O)(O)OP(=O)(O)OP(=O)(O)O)O[C@H]1c1ccc2c(N)ncnn12 | nucleotide incorporation | IC50 |  | GT-1b Con1 | Nonstructural protein 5B | Hepatitis C virus | 0.37 µM
O=c1cc(-c2ccc(O)c(O)c2)oc2cc(O)ccc12 | SYBR Green | inhibition | 20 µM | J4 | Replicase complex | Hepatitis C virus | 35.4%
NCCc1c[nH]c2ccccc12 |  | IC50 |  |  | Nonstructural protein 3 NTPase/helicase | Hepatitis C virus | >25 µg/mL
COc1ccc(-c2cc(NS(=O)(=O)c3ccc(C)cc3C)c(C(=O)O)s2)cc1 |  | IC50 |  |  | NS3 ATPase | Hepatitis C virus | <5 µM
CC(C)[C@H](NC(=O)[C@H](CC(=O)O)NC(=O)[C@@H](N)CCC(=O)O)C(=O)N[C@H](C(=O)N[C@@H](CS)C(=O)N[C@@H](CS)C(=O)O)C(C)C |  | IC50 |  |  | NS3 protease | Hepatitis C virus | 5.3 µM
CCCC(O)c1nc(C(=O)O)c(O)c(=O)[nH]1 |  | IC50 |  |  | HCV polymerase | Hepatitis C virus | <100 µM
CC[C@H](C)[C@H](NC(=O)[C@H](CC(C)C)NC(=O)[C@H](CCC(=O)O)NC(=O)[C@H](CC(=O)O)NC(=O)O)C(=O)N[C@@H](CC1CCCCC1)C(=O)N[C@@H](CS)C(=O)O |  | IC50 |  |  | NS3/NS4A protease | Hepatitis C virus | 0.06 µM
CC[C@H](NC(=O)[C@@H]1C[C@@H](OCc2ccccc2)CN1C(=O)[C@@H](NC(=O)[C@@H](NC(=O)c1cnccn1)C(C)C)C(C)C)C(=O)C(=O)NCCc1ccccc1 |  | Ki |  |  | NS3 protease | Hepatitis C virus | 1–100 µM
Clc1c(Cl)c(Cl)c2n[nH]nc2c1Cl |  | IC50 |  |  | Nonstructural protein 3 NTPase/helicase | Hepatitis C virus | 380 µM
CC[C@H](NC(=O)[C@H](CC1CCCCC1)NC(=O)[C@H](CCC(=O)O)NC(=O)[C@H](CC(C)C)NC(=O)[C@H](CCC(=O)O)NC(=O)[C@@H](N)CC(=O)O)C(=O)O |  | IC50 |  |  | NS3 protease | Hepatitis C virus | 1.6 µM
CC[C@H](NC(=O)[C@H](c1ccccc1)N1CCC(NC(=O)OC(C)(C)C)(C(C)C)C1=O)B1OC2CC3CC(C3(C)C)C2(C)O1 |  | IC50 |  |  | NS3 serine protease | Hepatitis C virus | <50 µM
O=C(NCc1nccs1)Nc1cscc1-c1nc(C(=O)O)c(O)c(=O)[nH]1 |  | IC50 |  |  | HCV polymerase | Hepatitis C virus | <25 µM
O=c1c(O)c(-c2ccc(O)cc2)oc2cc(O)cc(O)c12 | SYBR Green | inhibition | 20 µM | J4 | Replicase complex | Hepatitis C virus | 74.7%
CCC[C@H](NC(=O)C1C[C@@H](OC(=O)N2CCc3ccccc3C2)CN1C(=O)[C@@H](NC(=O)[C@@H](NC(=O)c1cnccn1)C(C)C)C(C)C)C(=O)C(=O)N1CC1C(=O)OC |  | Ki |  |  | HCV NS3 protease | Hepatitis C virus | <1 µM
CC[C@H](NC(=O)[C@@H]1C[C@@H](OCc2ccccc2)CN1C(=O)[C@@H](NC(=O)[C@@H](NC(=O)c1cnccn1)C(C)C)C(C)C)C(=O)C(F)(F)C(F)(F)F |  | Ki |  |  | NS3 protease | Hepatitis C virus | 1–100 µM
CC(C)N(C(=O)[C@H]1CC[C@H](C)C[C@H]1O)c1cc(-c2ccccc2)sc1C(=O)O |  | IC50 |  |  | NS3 ATPase | Hepatitis C virus | <5 µM
CC(C)[C@H](NC(=O)[C@H](CCC(=O)O)NC(=O)[C@@H](N)CC(=O)O)C(=O)N[C@@H](CCC(=O)O)C(=O)N[C@@H](CC1CCCCC1)C(=O)N[C@@H](CS)C(=O)O |  | IC50 |  |  | NS3 protease | Hepatitis C virus | 0.33 µM
O=C1/C(=C\c2ccc([N+](=O)[O-])c(O)c2)SC(=S)N1NS(=O)(=O)c1ccccc1 |  | IC50 |  |  | NS5B polymerase | Hepatitis C virus | ≤30 µM
CC(=O)N[C@@H](CC(=O)O)C(=O)N[C@@H](CCC(=O)O)C(=O)N[C@H](C(=O)N[C@@H](CCCCN)C(=O)N[C@@H](CC1CCCCC1)C(=O)N[C@@H](CS)C(=O)O)C(c1ccccc1)c1ccccc1 |  | IC50 |  |  | Full-length NS3 | Hepatitis C virus | 2.07 µM
O=C(Nc1cccc(-c2nc(C(=O)O)c(O)c(=O)[nH]2)c1)Nc1cccc(Cl)c1Cl |  | IC50 |  |  | HCV polymerase | Hepatitis C virus | <100 µM
C[C@@]1(O)[C@H](O)[C@@H](COP(=O)(O)OP(=O)(O)OP(=O)(O)O)O[C@H]1c1ccc2c(=O)[nH]c(N)nn12 | nucleotide incorporation | IC50 |  | GT-1b Con1 | Nonstructural protein 5B | Hepatitis C virus | 0.21 µM
CCCN(NC(=O)[C@@H]1CCCN1C(=O)[C@@H](NC(=O)[C@@H](NC(=O)[C@@H](CC(C(=O)O)C(=O)O)NC(=O)[C@H](CCC(=O)O)NC(=O)OC)C(C)C)C(C)C)C(=O)OCCl |  | Ki |  |  | NS3 serine protease | Hepatitis C virus | 0.03 µM
CCOc1ccc2ccccc2c1C(=O)N[C@H](C(=O)N1C[C@H](OCc2ccccc2)C[C@H]1C(=O)N[C@H](C=O)CC)C(C)C |  | Ki |  |  | NS3 protease | Hepatitis C virus | 1–100 µM
O=C(CCC(=O)Nc1ccc(-c2nc3ccccc3[nH]2)cc1)Nc1ccc(-c2nc3ccccc3[nH]2)cc1 |  | IC50 |  |  | Nonstructural protein 3 NTPase/helicase | Hepatitis C virus | >25 µg/mL
O=C(N[C@H](C(=O)O)c1c[nH]c2ccc(O)cc12)c1ccc2c(c1)nc(-c1ccc(C(F)(F)F)cc1)n2C1CCCCC1 |  | IC50 |  |  | NS5B polymerase | Hepatitis C virus | 1–5 µM
Nc1ccc(-c2nc3ccccc3s2)cc1 |  | IC50 |  |  | Nonstructural protein 3 NTPase/helicase | Hepatitis C virus | >25 µg/mL
CSCC[C@H](NC(=O)[C@H](CCC(=O)O)NC(=O)[C@H](CC(=O)O)NC(C)=O)C(=O)N[C@@H](CCC(=O)O)C(=O)N[C@@H](Cc1ccc2ccccc2c1)C(=O)N[C@@H](CS)C(=O)O |  | Ki |  |  | Full-length NS3 | Hepatitis C virus | 0.44 µM
CC(=O)N[C@@H](CC(=O)O)C(=O)N[C@@H](CCC(=O)O)C(=O)N[C@H](C(=O)N[C@@H](CCC(=O)O)C(=O)N[C@@H](CC1CCCCC1)C(=O)N[C@H](C=O)CC(F)F)C(c1ccccc1)c1ccccc1 |  | IC50 |  |  | NS3/NS4A protease | Hepatitis C virus | 0.0005 µM
CC[C@H](NC(=O)[C@@H]1C[C@@H](OCc2ccc3ccccc3c2)CN1C(=O)[C@@H](NC(=O)[C@@H](NC(=O)c1cnccn1)C(C)C)C(C)C)P(=O)(Oc1ccccc1)Oc1ccccc1 |  | Ki |  |  | NS3 protease | Hepatitis C virus | 1–100 µM
O=C(O)c1nc(-c2cc(Cl)ccc2NS(=O)(=O)c2ccc3c(Cl)cccc3c2)[nH]c(=O)c1O |  | IC50 |  |  | HCV polymerase | Hepatitis C virus | <100 µM
CC[C@H](NC(=O)[C@@H](NC(=O)[C@@H](NC(=O)[C@H](CC(=O)O)NC(=O)[C@H](CCC(=O)O)NC(C)=O)C(C)C)C(C)C)C(=O)N[C@H](C=O)C(C)C |  | IC50 |  |  | NS3/NS4A protease | Hepatitis C virus | 50 µM
CC[C@@H](C=O)NC(=O)[C@@H]1C[C@@H](OCc2ccccc2)CN1C(=O)[C@@H](NC(=O)[C@@H](NC(=O)CCCC(=O)O)C(C)C)C(C)C |  | Ki |  |  | NS3 protease | Hepatitis C virus | 1–100 µM
OC[C@H]1O[C@@H](n2cnc3cc(Br)c(Br)cc32)[C@H](O)[C@@H]1O |  | IC50 |  |  | Nonstructural protein 3 NTPase/helicase | Hepatitis C virus | >500 µM
CC[C@H](C)[C@H](NC(=O)[C@@H](NC(=O)[C@H](CCC(=O)O)NC(C)=O)C(c1ccccc1)c1ccccc1)C(=O)N[C@@H](CC1CCCCC1)C(=O)N[C@@H](CS)C(=O)O |  | IC50 |  |  | HCV NS3 protease | Hepatitis C virus | 2.4 µM
CC[C@H](C)[C@H](NC(=O)[C@H](CC(C)C)NC(=O)[C@@H](CCC(=O)O)NC(=O)[C@H](CC(=O)O)NC(C)=O)C(=O)N[C@@H](CC1CCCCC1)C(=O)N[C@@H](CS)C(=O)O |  | IC50 |  |  | NS3/NS4A protease | Hepatitis C virus | 0.015 µM
CSCC[C@H](NC(=O)[C@H](CCC(=O)O)NC(=O)CCC(=O)O)C(=O)N[C@@H](CCC(=O)O)C(=O)N[C@@H](CCC(=O)O)C(=O)N[C@@H](CS)C(=O)O |  | IC50 |  |  | NS3 protease | Hepatitis C virus | 1.3 µM
O=C(Nc1ccc(-c2nc3ccccc3[nH]2)cc1)c1ccc(C(=O)Nc2ccc(-c3nc4ccccc4[nH]3)cc2)cc1 |  | IC50 |  |  | Nonstructural protein 3 NTPase/helicase | Hepatitis C virus | <25 µg/mL
CC[C@H](NC(=O)[C@@H]1C[C@@H](OCc2ccccc2)CN1C(=O)[C@@H](NC(=O)[C@@H](NC(=O)c1cnccn1)C(C)C)C(C)C)B1OC2CC3CC(C3(C)C)C2(C)O1 |  | Ki |  |  | NS3 protease | Hepatitis C virus | 1–100 µM
CC(C)(C)OC(=O)N1CCCC(N(C(=O)c2ccc(Cl)cc2Cl)c2cc(-c3ccccc3)sc2C(=O)O)CC1 |  | IC50 |  |  | NS3 ATPase | Hepatitis C virus | <5 µM
COc1ccc2c(O[C@@H]3C[C@H]4C(=O)N[C@]5(C(=O)O)CC5/C=C\CCCCC[C@H](NC(=O)OC(C)(C)C)C(=O)N4C3)cc(-c3csc(NC(C)C)n3)nc2c1 |  | Ki |  |  | NS3 serine protease | Hepatitis C virus | <0.05 µM
O=C(Nc1cscc1-c1nc(C(=O)O)c(O)c(=O)[nH]1)NS(=O)(=O)c1ccccc1 |  | IC50 |  |  | HCV polymerase | Hepatitis C virus | <25 µM
O=C1/C(=C\c2ccc(Cl)c(Cl)c2)SC(=S)N1NS(=O)(=O)c1ccccc1F |  | IC50 |  |  | NS3 serine protease | Hepatitis C virus | <1 µM
CC1CCC(C(=O)N(c2cc(-c3ccccc3)sc2C(=O)O)C2CCOCC2)CC1 |  | IC50 |  |  | NS3 ATPase | Hepatitis C virus | <5 µM
CC(=O)N[C@@H](CC(=O)O)C(=O)N[C@@H](CCC(=O)O)C(=O)N[C@H](C(=O)N[C@@H](CCC(=O)O)C(=O)N[C@H](C(=O)N[C@@H](CC(F)F)C(=O)O)C1CCCCC1)C(c1ccccc1)c1ccccc1 |  | IC50 |  |  | NS3/NS4A protease | Hepatitis C virus | 0.03 µM
CSCC[C@H](NC(=O)[C@H](CCC(=O)O)NS(=O)(=O)C(C)=O)C(=O)N[C@@H](CCC(=O)O)C(=O)N[C@@H](CCC(=O)O)C(=O)N[C@@H](CS)C(=O)O |  | IC50 |  |  | NS3 protease | Hepatitis C virus | 0.6 µM
O=C1CC(c2ccccc2)Oc2ccc(O)cc21 | SYBR Green | inhibition | 20 µM | J4 | Replicase complex | Hepatitis C virus | 4.1%
O=C(O)CCN(CCC(c1ccccc1)c1ccccc1)C(=O)[C@@H](NC(=O)[C@@H]1CCCC[C@H]1C(=O)O)c1ccccc1 |  | IC50 |  |  | NS3/NS4A protease | Hepatitis C virus | 22 µM
Cc1ccccc1S(=O)(=O)Nc1cc(Br)sc1C(=O)O |  | IC50 |  |  | NS3 ATPase | Hepatitis C virus | 5–20 µM
O=C(NCCC1=CCCCC1)Nc1ccsc1-c1nc(C(=O)O)c(O)c(=O)[nH]1 |  | IC50 |  |  | HCV polymerase | Hepatitis C virus | <25 µM
CC1=CCC(C(=O)N(c2cc(-c3ccccc3)sc2C(=O)O)C(C)C)C1 |  | IC50 |  |  | NS3 ATPase | Hepatitis C virus | <5 µM
O=C(CCCCCCCC(=O)Nc1nc2ccccc2[nH]1)Nc1nc2ccccc2[nH]1 |  | IC50 |  |  | Nonstructural protein 3 NTPase/helicase | Hepatitis C virus | >25 µg/mL
COC(=O)NN1C(=O)/C(=C\c2ccc(Cl)c(Cl)c2)SC1=S |  | IC50 |  |  | NS5B polymerase | Hepatitis C virus | ≤30 µM
COc1cccc(CNC(=O)Nc2cccc(-c3nc(C(=O)O)c(O)c(=O)[nH]3)c2)c1 |  | IC50 |  |  | HCV polymerase | Hepatitis C virus | <100 µM
C=C(C)c1ccc2c(c1)nc(-c1ccc(OCc3cc(NC(=O)OC)ccc3-c3ccc(Cl)cc3)cc1)n2C1CCCCC1 |  | IC50 |  |  | NS3 serine protease | Hepatitis C virus | 0.017 µM
CC(C)(C)OC(=O)Nc1sccc1-c1nc(C(=O)O)c(O)c(=O)[nH]1 |  | IC50 |  |  | HCV polymerase | Hepatitis C virus | <25 µM
CC(C)CC(=O)N(Cc1ccc([N+](=O)[O-])cc1)c1cc(-c2ccccc2)sc1C(=O)O |  | IC50 |  |  | NS3 ATPase | Hepatitis C virus | <5 µM
Nc1ccc(-c2nc3ncccc3o2)cc1 |  | IC50 |  |  | Nonstructural protein 3 NTPase/helicase | Hepatitis C virus | >25 µg/mL
N[C@@H](CCC(=O)O)C(=O)N[C@H](C(=O)N[C@@H](CCC(=O)O)C(=O)N[C@@H](CC1CCCCC1)C(=O)N[C@@H](CS)C(=O)O)C(c1ccccc1)c1ccccc1 |  | IC50 |  |  | NS3 protease | Hepatitis C virus | 1.4 µM
Cc1ccc(/C=C2/SC(=S)N(NS(=O)(=O)c3ccccc3)C2=O)cc1 |  | IC50 |  |  | NS5B polymerase | Hepatitis C virus | ≤30 µM
O=C(Nc1ccc2cn[nH]c2c1)c1cc(NCc2ccccn2)c(F)cc1F |  | inhibition | 0.1 µg/mL |  | Nonstructural protein 5B | Hepatitis C virus | 28%

Two numbers with a dash give a range or band. Neighbouring rows are from separate reports. Inhibition is in % at the dose shown (toxicity tests: loss of growth or viability). Blank or dashed fields: not listed here.